Source: publication PMC6458069 (Molecular microbiology, 2019)

Amino acid sequences for entries named in this document (tags omitted). A change or cut given only in a name is not applied to a line headed by its entry.
UniProt P0A6M2: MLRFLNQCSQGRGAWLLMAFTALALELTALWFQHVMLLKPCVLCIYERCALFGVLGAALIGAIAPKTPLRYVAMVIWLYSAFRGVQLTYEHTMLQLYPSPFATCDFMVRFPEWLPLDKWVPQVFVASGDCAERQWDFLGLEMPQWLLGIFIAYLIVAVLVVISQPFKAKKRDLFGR

Biological target: T1, EcDsbB (Escherichia coli, UniProt P0A6M2, C49V/C8A)
T1 sequence (P0A6M2 1-176 C8A/C49V): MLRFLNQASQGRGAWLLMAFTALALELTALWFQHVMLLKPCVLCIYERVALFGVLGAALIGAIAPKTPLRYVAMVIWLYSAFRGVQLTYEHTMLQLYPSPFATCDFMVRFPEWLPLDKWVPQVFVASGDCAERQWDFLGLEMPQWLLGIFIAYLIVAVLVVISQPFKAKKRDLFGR
Assay: In vitro ubiquinone reduction assay with purified EcDsbB
Assay type: biochemical, E. coli

Cn1c(=O)c([N+](=O)[O-])c(Cl)c2ccccc21 [PA3]
IC50: 17 ± 2 µM
